The record followed here is publication PMC6669600 (Viruses, 2019).

For the assay, the system named is HIV-1NL4-3 pseudovirus. The assay is classed as cell-based. The following applies: HIV-1NL4-3(D36G) pseudovirus entry, TZM-bl cells, triplicate, repeated three times, mean ± SD, read-out: Inhibition (IC50, nM) NL4-3 entry.

Where two headings read alike, the source gives them in different places.

As usually defined, the IC50 is the midpoint of a concentration-inhibition curve.

For the compound `CC[C@H](C)[C@H](NC(=O)[C@H](CC(C)C)NC(=O)[C@H](CCC(=O)O)NC(=O)[C@H](CCC(=O)O)NC(=O)[C@@H](NC(=O)[C@H](CCCCN)NC(=O)[C@H](CCCCN)NC(=O)[C@@H](NC(=O)[C@H](Cc1ccc(O)cc1)NC(=O)[C@H](CCC(=O)O)NC(=O)[C@H](CCC(=O)O)NC(=O)[C@@H](NC(=O)[C@H](CCCCN)NC(=O)[C@H](CCCNC(=N)N)NC(=O)[C@H](CC(=O)O)NC(=O)[C@H](Cc1c[nH]c2ccccc12)NC(=O)[C@H](CCC(=O)O)NC(=O)[C@H](CCC(=O)O)NC(=O)[C@H](Cc1c[nH]c2ccccc12)NC(C)=O)[C@@H](C)CC)[C@@H](C)O)[C@@H](C)CC)C(=O)N[C@@H](CCCCN)C(=O)N[C@@H](CCCCN)C(=O)N[C@@H](CO)C(=O)N[C@@H](CCC(N)=O)C(=O)N[C@@H](CC(N)=O)C(=O)N[C@@H](CCC(N)=O)C(=O)N[C@@H](CCC(N)=O)C(=O)N[C@@H](CCC(=O)O)C(=O)N[C@@H](CCCCN)C(=O)N[C@@H](CC(N)=O)C(N)=O` [WQ-EKN], under “SD”, the IC50 was found to be 1.4 ± 0.2 nM.

With `CC[C@H](C)[C@H](NC(=O)[C@H](CC(C)C)NC(=O)[C@H](CCC(=O)O)NC(=O)[C@H](CCC(=O)O)NC(=O)[C@@H](NC(=O)[C@H](CCCCN)NC(=O)[C@H](CCCCN)NC(=O)[C@@H](NC(=O)[C@H](Cc1ccc(O)cc1)NC(=O)[C@H](CCC(=O)O)NC(=O)[C@H](CCC(=O)O)NC(=O)[C@@H](NC(=O)[C@H](CCCCN)NC(=O)[C@H](CCCCN)NC(=O)[C@H](CC(=O)O)NC(=O)[C@H](Cc1c[nH]c2ccccc12)NC(=O)[C@H](CCC(=O)O)NC(=O)[C@H](CCC(=O)O)NC(=O)[C@H](Cc1c[nH]c2ccccc12)NC(=O)[C@@H](NC(=O)[C@H](CCSC)NC(C)=O)[C@@H](C)O)[C@@H](C)CC)[C@@H](C)O)[C@@H](C)CC)C(=O)N[C@@H](CCCCN)C(=O)N[C@@H](CCCCN)C(=O)N[C@@H](CO)C(=O)N[C@@H](CCC(=O)O)C(=O)N[C@@H](CCC(=O)O)C(N)=O` [MT-SC24EK], for the setting “SD”, the IC50 is 2.8 ± 0.2 nM.

In the case of `CC[C@H](C)[C@H](NC(=O)[C@H](CC(C)C)NC(=O)[C@H](CCC(=O)O)NC(=O)[C@H](CCC(=O)O)NC(=O)[C@@H](NC(=O)[C@H](CCCCN)NC(=O)[C@H](CCCCN)NC(=O)[C@@H](NC(=O)[C@H](Cc1ccc(O)cc1)NC(=O)[C@H](CCC(=O)O)NC(=O)[C@H](CCC(=O)O)NC(=O)[C@@H](NC(=O)[C@H](CCCCN)NC(=O)[C@H](CCCCN)NC(=O)[C@H](CC(=O)O)NC(=O)[C@H](Cc1c[nH]c2ccccc12)NC(=O)[C@H](CCC(=O)O)NC(=O)[C@H](CCC(=O)O)NC(=O)[C@H](Cc1c[nH]c2ccccc12)NC(C)=O)[C@@H](C)CC)[C@@H](C)O)[C@@H](C)CC)C(=O)N[C@@H](CCCCN)C(=O)N[C@@H](CCCCN)C(=O)N[C@@H](CO)C(=O)N[C@@H](CCC(=O)O)C(=O)N[C@@H](CCC(=O)O)C(=O)N[C@@H](CCC(N)=O)C(=O)N[C@@H](CCC(N)=O)C(=O)N[C@@H](CCCCN)C(=O)N[C@@H](CCCCN)C(N)=O` [SC28EK], the IC50 came to 18 nM.

Turning to `CC[C@H](C)[C@H](NC(=O)[C@H](CC(C)C)NC(=O)[C@H](CCC(=O)O)NC(=O)[C@H](CCC(=O)O)NC(=O)[C@@H](NC(=O)[C@H](CCCCN)NC(=O)[C@H](CCCCN)NC(=O)[C@@H](NC(=O)[C@H](Cc1ccc(O)cc1)NC(=O)[C@H](CCC(=O)O)NC(=O)[C@H](CCC(=O)O)NC(=O)[C@@H](NC(=O)[C@H](CCCCN)NC(=O)[C@H](CCCCN)NC(=O)[C@H](CC(=O)O)NC(=O)[C@H](Cc1c[nH]c2ccccc12)NC(=O)[C@H](CCC(=O)O)NC(=O)[C@H](CCC(=O)O)NC(=O)[C@H](Cc1c[nH]c2ccccc12)NC(=O)[C@@H](NC(=O)[C@H](CCSC)NC(C)=O)[C@@H](C)O)[C@@H](C)CC)[C@@H](C)O)[C@@H](C)CC)C(=O)N[C@@H](CCCCN)C(=O)N[C@@H](CCCCN)C(=O)N[C@@H](CO)C(=O)N[C@@H](CCC(=O)O)C(N)=O` [MT-SC23EK], the IC50 (SD) worked out at 2.1 ± 0.2 nM.

As for `CC[C@H](C)[C@H](NC(=O)[C@H](CC(C)C)NC(=O)[C@H](CCC(=O)O)NC(=O)[C@H](CCC(=O)O)NC(=O)[C@@H](NC(=O)[C@H](CCCCN)NC(=O)[C@H](CCCCN)NC(=O)[C@@H](NC(=O)[C@H](Cc1ccc(O)cc1)NC(=O)[C@H](CCC(=O)O)NC(=O)[C@H](CCC(=O)O)NC(=O)[C@@H](NC(=O)[C@H](CCCCN)NC(=O)[C@H](CCCCN)NC(=O)[C@H](CC(=O)O)NC(=O)[C@H](Cc1c[nH]c2ccccc12)NC(=O)[C@H](CCC(=O)O)NC(=O)[C@H](CCC(=O)O)NC(=O)[C@H](Cc1c[nH]c2ccccc12)NC(C)=O)[C@@H](C)CC)[C@@H](C)O)[C@@H](C)CC)C(=O)N[C@@H](CCCCN)C(N)=O` [SC20EK], the IC50 (SD) is 127 ± 10.7 nM.

For `CC[C@H](C)[C@H](NC(=O)[C@H](CC(C)C)NC(=O)[C@H](CCC(=O)O)NC(=O)[C@H](CCC(=O)O)NC(=O)[C@@H](NC(=O)[C@H](CCCCN)NC(=O)[C@H](CCCCN)NC(=O)[C@@H](NC(=O)[C@H](Cc1ccc(O)cc1)NC(=O)[C@H](CCC(=O)O)NC(=O)[C@H](CCC(=O)O)NC(=O)[C@@H](NC(=O)[C@H](CCCCN)NC(=O)[C@H](CCCCN)NC(=O)[C@H](CC(=O)O)NC(=O)[C@H](Cc1c[nH]c2ccccc12)NC(=O)[C@H](CCC(=O)O)NC(=O)[C@H](CCC(=O)O)NC(=O)[C@H](Cc1c[nH]c2ccccc12)NC(=O)[C@@H](NC(=O)[C@H](CCSC)NC(C)=O)[C@@H](C)O)[C@@H](C)CC)[C@@H](C)O)[C@@H](C)CC)C(=O)N[C@@H](CCCCN)C(=O)N[C@@H](CCCCN)C(=O)N[C@@H](CO)C(=O)N[C@@H](CCC(=O)O)C(=O)N[C@@H](CCC(=O)O)C(=O)N[C@@H](CCC(N)=O)C(=O)N[C@@H](CCC(N)=O)C(=O)N[C@@H](CCCCN)C(=O)N[C@@H](CCCCN)C(N)=O` [MT-SC28EK], the IC50 (SD) amounted to 1.3 ± 0.2 nM.

Regarding `CC[C@H](C)[C@H](NC(=O)[C@H](CCC(N)=O)NC(=O)[C@H](CCC(N)=O)NC(=O)[C@H](CC(N)=O)NC(=O)[C@H](CCC(N)=O)NC(=O)[C@H](CO)NC(=O)[C@H](CCCCN)NC(=O)[C@H](CCCCN)NC(=O)[C@@H](NC(=O)[C@H](CC(C)C)NC(=O)[C@H](CCC(=O)O)NC(=O)[C@H](CCC(=O)O)NC(=O)[C@@H](NC(=O)[C@H](CCCCN)NC(=O)[C@H](CCCCN)NC(=O)[C@@H](NC(=O)[C@H](Cc1ccc(O)cc1)NC(=O)[C@H](CCC(=O)O)NC(=O)[C@H](CCC(=O)O)NC(=O)[C@@H](NC(=O)[C@H](CCCCN)NC(=O)[C@H](CCCNC(=N)N)NC(=O)[C@H](CC(=O)O)NC(=O)[C@H](Cc1c[nH]c2ccccc12)NC(=O)[C@H](CCC(=O)O)NC(=O)[C@H](CCC(=O)O)NC(=O)[C@H](Cc1c[nH]c2ccccc12)NC(C)=O)[C@@H](C)CC)[C@@H](C)O)[C@@H](C)CC)[C@@H](C)CC)C(=O)N[C@@H](CC(=O)O)C(=O)N[C@@H](CC(C)C)C(N)=O` [WQ-IDL, reference compound], where the note is “SD”, the IC50 is 1.5 ± 0.2 nM.

Turning to `CC[C@H](C)[C@H](NC(=O)[C@H](CC(C)C)NC(=O)[C@H](CCC(=O)O)NC(=O)[C@H](CCC(=O)O)NC(=O)[C@@H](NC(=O)[C@H](CCCCN)NC(=O)[C@H](CCCCN)NC(=O)[C@@H](NC(=O)[C@H](Cc1ccc(O)cc1)NC(=O)[C@H](CCC(=O)O)NC(=O)[C@H](CCC(=O)O)NC(=O)[C@@H](NC(=O)[C@H](CCCCN)NC(=O)[C@H](CCCCN)NC(=O)[C@H](CC(=O)O)NC(=O)[C@H](Cc1c[nH]c2ccccc12)NC(=O)[C@H](CCC(=O)O)NC(=O)[C@H](CCC(=O)O)NC(=O)[C@H](Cc1c[nH]c2ccccc12)NC(C)=O)[C@@H](C)CC)[C@@H](C)O)[C@@H](C)CC)C(=O)N[C@@H](CCCCN)C(=O)N[C@@H](CCCCN)C(=O)N[C@@H](CO)C(=O)N[C@@H](CCC(=O)O)C(=O)N[C@@H](CCC(=O)O)C(=O)N[C@@H](CCC(N)=O)C(=O)N[C@@H](CCC(N)=O)C(N)=O` [SC26EK], the IC50 (SD) amounted to 44.9 ± 5.2 nM.

Take `CC[C@H](C)[C@H](NC(=O)[C@H](CC(C)C)NC(=O)[C@H](CCC(=O)O)NC(=O)[C@H](CCC(=O)O)NC(=O)[C@@H](NC(=O)[C@H](CCCCN)NC(=O)[C@H](CCCCN)NC(=O)[C@@H](NC(=O)[C@H](Cc1ccc(O)cc1)NC(=O)[C@H](CCC(=O)O)NC(=O)[C@H](CCC(=O)O)NC(=O)[C@@H](NC(=O)[C@H](CCCCN)NC(=O)[C@H](CCCCN)NC(=O)[C@H](CC(=O)O)NC(=O)[C@H](Cc1c[nH]c2ccccc12)NC(=O)[C@H](CCC(=O)O)NC(=O)[C@H](CCC(=O)O)NC(=O)[C@H](Cc1c[nH]c2ccccc12)NC(C)=O)[C@@H](C)CC)[C@@H](C)O)[C@@H](C)CC)C(=O)N[C@@H](CCCCN)C(=O)N[C@@H](CCCCN)C(N)=O` [SC21EK]: the IC50 (SD) is 113 ± 8 nM.

`CC[C@H](C)[C@H](NC(=O)[C@H](CC(C)C)NC(=O)[C@H](CCC(=O)O)NC(=O)[C@H](CCC(=O)O)NC(=O)[C@@H](NC(=O)[C@H](CCCCN)NC(=O)[C@H](CCCCN)NC(=O)[C@@H](NC(=O)[C@H](Cc1ccc(O)cc1)NC(=O)[C@H](CCC(=O)O)NC(=O)[C@H](CCC(=O)O)NC(=O)[C@@H](NC(=O)[C@H](CCCCN)NC(=O)[C@H](CCCCN)NC(=O)[C@H](CC(=O)O)NC(=O)[C@H](Cc1c[nH]c2ccccc12)NC(=O)[C@H](CCC(=O)O)NC(=O)[C@H](CCC(=O)O)NC(=O)[C@H](Cc1c[nH]c2ccccc12)NC(=O)[C@@H](NC(=O)[C@H](CCSC)NC(C)=O)[C@@H](C)O)[C@@H](C)CC)[C@@H](C)O)[C@@H](C)CC)C(=O)N[C@@H](CCCCN)C(=O)N[C@@H](CCCCN)C(=O)N[C@@H](CO)C(N)=O` [MT-SC22EK]: the IC50 (SD) was 2.4 ± 0.3 nM.

With `CC[C@H](C)[C@H](NC(=O)[C@H](CC(C)C)NC(=O)[C@H](CCC(=O)O)NC(=O)[C@H](CCC(=O)O)NC(=O)[C@@H](NC(=O)[C@H](CCCCN)NC(=O)[C@H](CCCCN)NC(=O)[C@@H](NC(=O)[C@H](Cc1ccc(O)cc1)NC(=O)[C@H](CCC(=O)O)NC(=O)[C@H](CCC(=O)O)NC(=O)[C@@H](NC(=O)[C@H](CCCCN)NC(=O)[C@H](CCCCN)NC(=O)[C@H](CC(=O)O)NC(=O)[C@H](Cc1c[nH]c2ccccc12)NC(=O)[C@H](CCC(=O)O)NC(=O)[C@H](CCC(=O)O)NC(=O)[C@H](Cc1c[nH]c2ccccc12)NC(C)=O)[C@@H](C)CC)[C@@H](C)O)[C@@H](C)CC)C(=O)N[C@@H](CCCCN)C(=O)N[C@@H](CCCCN)C(=O)N[C@@H](CO)C(=O)N[C@@H](CCC(=O)O)C(=O)N[C@@H](CCC(=O)O)C(N)=O` [SC24EK], the IC50 (SD) was determined as 108 ± 8 nM.
